Results of unrelated studies side by side (data: NIAID ChemDB).

Lines come from different laboratories, so protocols vary. Percent inhibition refers to the dose given; in toxicity tests it is the harm to the cells. MIC bound comes from a single tested concentration. An empty or dashed field is not shown. ICn is the concentration giving n% inhibition.

| SMILES | protein | method | tested at | read-out | cells | kind | strain or isolate | species | result |
|---|---|---|---|---|---|---|---|---|---|
| O=C(O)C(Br)(CCC1CCCCC1)C(=O)O | - | - | - | MIC | - | culture | H37Rv | Mycobacterium tuberculosis | 100 µg/mL |
| c1ccc(-c2cncc(N3CCN(c4ccccn4)CC3)n2)cc1 | UL97 kinase | - | - | IC50 | - | target | - | Cytomegalovirus | <10 µM |
| O=C(O)c1ccccc1-c1ccccc1C(=O)O | - | - | - | MIC | - | culture | H37Rv | Mycobacterium tuberculosis | 50 µg/mL |
| NC(=O)N/N=C(\C(=O)C(=O)Nc1ccc(Cl)c(C(F)(F)F)c1)c1nc2ccc(C(=O)c3ccccc3)cc2[nH]c1=O | - | BACTEC | - | MIC bound | - | culture | H37Rv | Mycobacterium tuberculosis | >12.5 µg/mL |
| CCOc1ccc(-c2cncc(N3CCN(c4ccc(C)cc4)CC3)n2)cc1 | UL97 kinase | - | - | IC50 | - | target | - | Cytomegalovirus | <100 µM |
| C1SCSCS1 | - | - | - | MIC | - | culture | H37Rv | Mycobacterium tuberculosis | >100 µg/mL |
| COC1/C=C/OC2(C)Oc3c(C)c(O)c4c(c3C2=O)C(=O)C([N+](=O)[O-])=C(NC(=O)/C(C)=C\C=C\C(C)C(O)C(C)C(O)C(C)C(OC(C)=O)C1C)C4=O | - | resazurin | 6.25 µg/mL | inhibition | - | culture | H37Rv | Mycobacterium tuberculosis | 101% |
| FC(F)(F)c1cccc(N2CCN(c3cncc(-c4ccc5ccccc5c4)n3)CC2)c1 | UL97 kinase | - | - | IC50 | - | target | - | Cytomegalovirus | <100 µM |
| CN1C(=O)Cn2c(nn(CCN3CCCC3)c(=O)c2=O)-c2cc(Cl)ccc21 | - | BACTEC | - | MIC bound | - | culture | H37Rv | Mycobacterium tuberculosis | >12.5 µg/mL |
| COc1ccc(N2CCN(c3cncc(-c4ccc(CN)cc4)n3)CC2)cc1OC | UL97 kinase | - | - | IC50 | - | target | - | Cytomegalovirus | <100 µM |
| Fc1ccc(N2CCCCC2)c(NC(=S)c2ccncc2)c1 | GRK6 | kinase activity | 10 µM | inhibition | - | host protein | - | - | 3% |
| CC(C)(C)c1cc(C(C)(C)C)c(=O)oc(=O)c1 | - | BACTEC | 12.5 µg/mL | inhibition | - | culture | H37Rv | Mycobacterium tuberculosis | 5% |
| CCCCCN(c1ccccc1)S(=O)(=O)c1ccc(NC(=O)CC(=O)c2ccccc2)cc1 | - | - | - | MIC | - | culture | H37Rv | Mycobacterium tuberculosis | >100 µg/mL |
| COc1ccc(Cl)cc1-c1cncc(N2CCN(c3ccccc3OC)CC2)n1 | UL97 kinase | - | - | IC50 | - | target | - | Cytomegalovirus | <100 µM |
| Cc1ccsc1C(=S)Nc1ccc(Cl)c(/C=N/OC(C)(C)C)c1 | - | BACTEC | 12.5 µg/mL | inhibition | - | culture | H37Rv | Mycobacterium tuberculosis | 99% |
| O=C1c2ccccc2C(=O)N1CCCBr | - | - | - | MIC | - | culture | H37Rv | Mycobacterium tuberculosis | >100 µg/mL |
| Cc1cc2c(cc1C)NC1=C(N2)OC(c2ccc(C3OC4=C(Nc5cc(C)c(C)cc5N4)C3=O)cc2)C1=O | - | BACTEC | 12.5 µg/mL | inhibition | - | culture | H37Rv | Mycobacterium tuberculosis | -28% |
| Cc1c(O)cc(I)cc1I | - | - | - | MIC | - | culture | H37Rv | Mycobacterium tuberculosis | 25 µg/mL |
| c1cncc(-c2cncc(N3CCN(c4ccncc4)CC3)n2)c1 | UL97 kinase | - | - | IC50 | - | target | - | Cytomegalovirus | <100 µM |
| CCN(CC)CCCC(C)Nc1cc(/C=C/c2ccc(Cl)cc2)nc2ccc(N(C)C)cc12 | - | resazurin | - | MIC | VERO | culture | H37Rv | Mycobacterium tuberculosis | 3.13 µg/mL |
| O=C(O)c1ccccc1C(=O)c1ccc(Br)cc1 | - | - | - | MIC | - | culture | H37Rv | Mycobacterium tuberculosis | 50 µg/mL |

Again, the opening 2 rows:

SMILES,protein,method,tested at,read-out,cells,kind,strain or isolate,species,result
O=C(O)C(Br)(CCC1CCCCC1)C(=O)O,-,-,-,MIC,-,culture,H37Rv,Mycobacterium tuberculosis,100 µg/mL
c1ccc(-c2cncc(N3CCN(c4ccccn4)CC3)n2)cc1,UL97 kinase,-,-,IC50,-,target,-,Cytomegalovirus,<10 µM